By UniProt entry, the sequences of proteins in these tests, tags left out. Residues count along the entry.
UniProt Q05941, 23-502 limits assumed: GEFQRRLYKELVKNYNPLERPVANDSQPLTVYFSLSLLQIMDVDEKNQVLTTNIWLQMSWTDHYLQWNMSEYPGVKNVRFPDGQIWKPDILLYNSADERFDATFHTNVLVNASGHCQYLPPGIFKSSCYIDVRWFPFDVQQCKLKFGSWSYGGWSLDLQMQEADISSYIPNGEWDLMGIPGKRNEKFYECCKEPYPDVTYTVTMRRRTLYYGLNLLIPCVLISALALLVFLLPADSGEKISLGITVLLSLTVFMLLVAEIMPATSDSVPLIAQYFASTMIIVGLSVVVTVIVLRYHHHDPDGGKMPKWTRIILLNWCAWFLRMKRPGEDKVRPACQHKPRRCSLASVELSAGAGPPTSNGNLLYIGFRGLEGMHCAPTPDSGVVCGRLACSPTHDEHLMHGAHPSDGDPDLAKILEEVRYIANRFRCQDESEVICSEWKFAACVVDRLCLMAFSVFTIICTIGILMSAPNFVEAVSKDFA

In paper PMC11433573 (Marine Drugs, 2024):

Molecular target: rα7 nAChR (Rattus norvegicus, UniProt Q05941)
Conditions: for selectivity towards rα7 versus rα3β2 and rα3β4: ratio of IC50s, rα7 versus the other two subtypes; for increase in selectivity for rα7 compared with the native RegIIA: rα7 versus rα3β2 and rα3β4

SMILES | selectivity towards rα7 versus rα3β2 and rα3β4 [fold] | increase in selectivity for rα7 compared with the native RegIIA [fold]
CC[C@H](C)[C@@H]1NC(=O)[C@H](Cc2c[nH]cn2)NC(=O)[C@@H]2CCCN2C(=O)[C@H](CC(N)=O)NC(=O)[C@H](CC(N)=O)NC(=O)[C@H](C(C)C)NC(=O)[C@H](CC(N)=O)NC(=O)[C@@H]2CSSC[C@H](NC(=O)CN)C(=O)N[C@@H](CSSC[C@@H](C(N)=O)NC1=O)C(=O)N[C@@H](CO)C(=O)N[C@@H](C)C(=O)N1CCC[C@H]1C(=O)N[C@@H](C)C(=O)N2 [[H5A]RegIIA] | > 21 | –
CC[C@H](C)[C@@H]1NC(=O)[C@H](Cc2c[nH]cn2)NC(=O)[C@@H]2CCCN2C(=O)[C@H](CC(N)=O)NC(=O)[C@H](CC(N)=O)NC(=O)[C@H](C(C)C)NC(=O)[C@H](CC(N)=O)NC(=O)[C@@H]2CSSC[C@H](NC(=O)CN)C(=O)N[C@@H](CSSC[C@@H](C(N)=O)NC1=O)C(=O)N[C@@H](CO)C(=O)N[C@@H](CO)C(=O)N1CCC[C@H]1C(=O)N[C@@H](C)C(=O)N2 [[H5S]RegIIA] | – | > 24
CC[C@H](C)[C@@H]1NC(=O)[C@H](Cc2c[nH]cn2)NC(=O)[C@@H]2CCCN2C(=O)[C@H](CC(N)=O)NC(=O)[C@H](CC(N)=O)NC(=O)[C@H](C(C)C)NC(=O)[C@H](CC(N)=O)NC(=O)[C@@H]2CSSC[C@H](NC(=O)CN)C(=O)N[C@@H](CSSC[C@@H](C(N)=O)NC1=O)C(=O)N[C@@H](CO)C(=O)N[C@@H](C(C)C)C(=O)N1CCC[C@H]1C(=O)N[C@@H](C)C(=O)N2 [[H5V]RegIIA] | – | > 24
CC[C@H](C)[C@@H]1NC(=O)[C@H](Cc2c[nH]cn2)NC(=O)[C@@H]2CCCN2C(=O)[C@H](CC(N)=O)NC(=O)[C@H](CC(N)=O)NC(=O)[C@H](C(C)C)NC(=O)[C@H](CC(N)=O)NC(=O)[C@@H]2CSSC[C@H](NC(=O)CN)C(=O)N[C@@H](CSSC[C@@H](C(N)=O)NC1=O)C(=O)N[C@@H](CO)C(=O)N[C@@H](Cc1c[nH]cn1)C(=O)N[C@@H](C)C(=O)N[C@@H](C)C(=O)N2 [[P6A]RegIIA] | > 21 | –
